Structure probing of HIV-1 leader RNA with DMS

Values reported by Ye et al. 2022 (doi:10.1038/s41594-022-00746-2).

Sequence of the HIV-1 NL4-3 5' RNA, positions 1 to 437, as numbered in the source:
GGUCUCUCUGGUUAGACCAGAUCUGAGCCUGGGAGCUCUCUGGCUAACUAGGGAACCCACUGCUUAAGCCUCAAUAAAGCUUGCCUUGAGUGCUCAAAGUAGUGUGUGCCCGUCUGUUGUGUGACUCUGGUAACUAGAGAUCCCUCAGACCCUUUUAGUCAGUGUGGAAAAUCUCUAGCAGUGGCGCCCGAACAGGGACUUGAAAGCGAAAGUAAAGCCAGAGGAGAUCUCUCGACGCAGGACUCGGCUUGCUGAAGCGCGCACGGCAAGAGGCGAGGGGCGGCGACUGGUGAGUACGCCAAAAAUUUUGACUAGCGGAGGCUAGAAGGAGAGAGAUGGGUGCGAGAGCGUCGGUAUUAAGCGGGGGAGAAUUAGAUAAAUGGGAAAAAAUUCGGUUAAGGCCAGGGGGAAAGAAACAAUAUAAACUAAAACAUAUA

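Mutant RNA libraries with 1G, 2G or 3G starts, with or without cap, were folded at 37 °C for 30 min. Monomer and dimer bands were cut from native gels after folding in high salt (300 mM KCl, 5 mM MgCl2) or low salt (40 mM KCl, 0.1 mM MgCl2). Each band was probed in the gel with DMS (170 mM, 15 min, 37 °C), with ethanol as control, and sequenced.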

Scale: normalised reactivity, A and C only; low values point to paired or protected bases, higher values to unpaired ones.
One numbering serves 1G, 2G and 3G.
A position is written with its base.

{"position": "A19", "domain": "TAR", "2G uncapped low-salt dimer": 0.04, "2G uncapped low-salt monomer": 0.03}
{"position": "A21", "domain": "TAR", "2G uncapped low-salt dimer": 0.57, "2G uncapped low-salt monomer": 0.57}
{"position": "C23", "domain": "TAR", "2G uncapped low-salt dimer": 1.19, "2G uncapped low-salt monomer": 1.31}
{"position": "A26", "domain": "TAR", "2G uncapped low-salt dimer": 0.15, "2G uncapped low-salt monomer": 0.10}
{"position": "C28", "domain": "TAR", "2G uncapped low-salt dimer": 0.05, "2G uncapped low-salt monomer": 0.03}
{"position": "C29", "domain": "TAR", "2G uncapped low-salt dimer": 0.10, "2G uncapped low-salt monomer": 0.09}
{"position": "A34", "domain": "TAR", "2G uncapped low-salt dimer": 1.00, "2G uncapped low-salt monomer": 1.12}
{"position": "C36", "domain": "TAR", "2G uncapped low-salt dimer": 0.05, "2G uncapped low-salt monomer": 0.03}
{"position": "C38", "domain": "TAR", "2G uncapped low-salt dimer": 0.04, "2G uncapped low-salt monomer": 0.03}
{"position": "C40", "domain": "TAR", "2G uncapped low-salt dimer": 0.04, "2G uncapped low-salt monomer": 0.03}
{"position": "C44", "domain": "TAR", "2G uncapped low-salt dimer": 0.04, "2G uncapped low-salt monomer": 0.03}
{"position": "A46", "domain": "TAR", "2G uncapped low-salt dimer": 0.07, "2G uncapped low-salt monomer": 0.04}
{"position": "A47", "domain": "TAR", "2G uncapped low-salt dimer": 0.18, "2G uncapped low-salt monomer": 0.14}
{"position": "C48", "domain": "TAR", "2G uncapped low-salt dimer": 0.09, "2G uncapped low-salt monomer": 0.03}
{"position": "A50", "domain": "TAR", "2G uncapped low-salt dimer": 0.20, "2G uncapped low-salt monomer": 0.14}
{"position": "A54", "domain": "TAR", "2G uncapped low-salt dimer": 0.17, "2G uncapped low-salt monomer": 0.14}
{"position": "A55", "domain": "TAR", "2G uncapped low-salt dimer": 0.25, "2G uncapped low-salt monomer": 0.27}
{"position": "C56", "domain": "TAR", "2G uncapped low-salt dimer": 0.04, "2G uncapped low-salt monomer": 0.04}
{"position": "C57", "domain": "TAR", "2G uncapped low-salt dimer": 0.05, "2G uncapped low-salt monomer": 0.03}
{"position": "C58", "domain": "PolyA", "2G uncapped low-salt dimer": 0.60, "2G uncapped low-salt monomer": 1.00}
{"position": "A59", "domain": "PolyA", "2G uncapped low-salt dimer": 0.36, "2G uncapped low-salt monomer": 0.56}
{"position": "C60", "domain": "PolyA", "2G uncapped low-salt dimer": 0.19, "2G uncapped low-salt monomer": 0.41}
{"position": "C63", "domain": "PolyA", "2G uncapped low-salt dimer": 0.11, "2G uncapped low-salt monomer": 0.26}
{"position": "A66", "domain": "PolyA", "2G uncapped low-salt dimer": 1.11, "2G uncapped low-salt monomer": 0.94}
{"position": "A67", "domain": "PolyA", "2G uncapped low-salt dimer": 0.57, "2G uncapped low-salt monomer": 0.81}
{"position": "C69", "domain": "PolyA", "2G uncapped low-salt dimer": 0.04, "2G uncapped low-salt monomer": 0.03}
{"position": "C70", "domain": "PolyA", "2G uncapped low-salt dimer": 0.04, "2G uncapped low-salt monomer": 0.03}
{"position": "C72", "domain": "PolyA", "2G uncapped low-salt dimer": 0.11, "2G uncapped low-salt monomer": 0.08}
{"position": "A73", "domain": "PolyA", "2G uncapped low-salt dimer": 0.04, "2G uncapped low-salt monomer": 0.04}
{"position": "A74", "domain": "PolyA", "2G uncapped low-salt dimer": 0.65, "2G uncapped low-salt monomer": 0.78}
{"position": "A76", "domain": "PolyA", "2G uncapped low-salt dimer": 0.25, "2G uncapped low-salt monomer": 0.27}
{"position": "A77", "domain": "PolyA", "2G uncapped low-salt dimer": 0.74, "2G uncapped low-salt monomer": 0.82}
{"position": "A78", "domain": "PolyA", "2G uncapped low-salt dimer": 0.67, "2G uncapped low-salt monomer": 0.76}
{"position": "C80", "domain": "PolyA", "2G uncapped low-salt dimer": 0.40, "2G uncapped low-salt monomer": 0.37}
{"position": "C84", "domain": "PolyA", "2G uncapped low-salt dimer": 0.71, "2G uncapped low-salt monomer": 0.42}
{"position": "C85", "domain": "PolyA", "2G uncapped low-salt dimer": 0.42, "2G uncapped low-salt monomer": 0.26}
{"position": "A89", "domain": "PolyA", "2G uncapped low-salt dimer": 0.34, "2G uncapped low-salt monomer": 0.51}
{"position": "C93", "domain": "PolyA", "2G uncapped low-salt dimer": 0.04, "2G uncapped low-salt monomer": 0.03}
{"position": "C95", "domain": "PolyA", "2G uncapped low-salt dimer": 0.57, "2G uncapped low-salt monomer": 0.52}
{"position": "A96", "domain": "PolyA", "2G uncapped low-salt dimer": 0.22, "2G uncapped low-salt monomer": 0.27}
{"position": "A97", "domain": "PolyA", "2G uncapped low-salt dimer": 0.31, "2G uncapped low-salt monomer": 0.47}
{"position": "A98", "domain": "PolyA", "2G uncapped low-salt dimer": 0.27, "2G uncapped low-salt monomer": 0.39}

A selection of 3 entries from above:

position,domain,2G uncapped low-salt dimer,2G uncapped low-salt monomer
C93,PolyA,0.04,0.03
C69,PolyA,0.04,0.03
C48,TAR,0.09,0.03